This is an account of results in PubChem BioAssay AID540336 (Broad Institute, 2011).

Sequences of proteins named here, by UniProt entry; tags and fusion partners are left off.
UniProt Q5AAJ8, whole entry, looked up: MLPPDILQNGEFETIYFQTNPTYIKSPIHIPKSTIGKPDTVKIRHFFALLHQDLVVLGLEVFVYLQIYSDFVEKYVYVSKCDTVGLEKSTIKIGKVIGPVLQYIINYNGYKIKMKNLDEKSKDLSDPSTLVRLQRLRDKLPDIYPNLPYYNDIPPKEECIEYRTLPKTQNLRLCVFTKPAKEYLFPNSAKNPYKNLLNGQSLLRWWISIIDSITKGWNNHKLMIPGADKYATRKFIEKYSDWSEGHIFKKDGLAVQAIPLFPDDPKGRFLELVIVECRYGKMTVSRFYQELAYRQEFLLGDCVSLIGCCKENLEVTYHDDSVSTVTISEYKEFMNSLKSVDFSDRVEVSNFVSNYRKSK

Structures are written as SMILES. The list shows a part of the results, in another mix than the full data. The source made the active and inactive calls.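 The calls were made as follows: active = inhibition of at least 50% in every replicate; inconclusive = best replicate reaches 50% inhibition but some replicates fall short; inactive = the rest.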

For the experiment, the target named is Histone acetyltransferase RTT109 (Candida albicans (strain SC5314 / ATCC MYA-2876)) (UniProt Q5AAJ8). The experiment is described as follows: Rtt109-Vps75 histone acetyltransferase blockade – biochemical, ThioGlo CoA-SH fluorescence, plate reader, primary screen (AID 540336). As to conditions: purified Rtt109/Vps75, ThioGlo CoA-SH fluorescence, 4 h; at 34.9 µM; active compounds read high.
For `Cc1c2c(nc3ccccc13)SC(C(Cl)Cl)C2` (configuration not stated), the inhibition was inactive: 9.04%.
Turning to `O=C(OC1CN2CCC1CC2)c1cccc2[nH]cnc12` (configuration not stated), the inhibition was inactive: 3.52%.
Turning to `CCN(CC)C(=S)SC(NC=O)C(Cl)(Cl)Cl` (configuration not stated), the inhibition was inactive: -3.67%.
Next, `CC(C)NC(=O)NP(=O)(Oc1ccccc1)Oc1ccccc1`: inactive: 19.8%.
For `CC(C)c1ccc(OP(=O)(Nc2ccccn2)Oc2ccccc2F)cc1` (configuration not stated), the inhibition is inactive: 4.28%.
In the case of `COC(=O)C1(C)COP(=O)(N2CCCCCC2)OC1` (configuration not stated) it was inactive: -3.33%; in that of `ClCCSc1nnc(-c2cccnc2)o1`, inactive: -10.7%; in that of `Cc1ccc2nc3c(c(C)c2c1)CC(C(Cl)Cl)S3` (configuration not stated), inactive: -15.6%.
In the case of `Cc1ccc(OP(=O)(Nc2ccc([N+](=O)[O-])cn2)Oc2ccc(C)cc2)cc1` it was inactive: 4.62%; in that of `COc1cc(C(=O)NCC2(N3CCOCC3)CCCCC2)ccc1OCC(C)C`, inactive: -6.75%.
Next, `O=[N+]([O-])c1ccc(-c2cc([N+](=O)[O-])c(O)c([N+](=O)[O-])c2)cc1`: inactive: 6.65%; `O=[As](O)(c1ccc(O)cc1)c1ccccc1O`: inactive: -4.01%.
Take `C[As](=O)(O)c1cccc(C(=O)O)c1`: the inhibition was inactive: -2.41%.
For the compound `O=[N+]([O-])c1ccc(Nc2ccc(Oc3ccc([N+](=O)[O-])cc3[N+](=O)[O-])cc2)c([N+](=O)[O-])c1`, the inhibition is inactive: 2.23%.
Regarding `Cc1cc(SC(NC=O)C(Cl)(Cl)Cl)ncn1` (configuration not stated), the inhibition was inactive: 17.7%.
With `O=P(Nc1ccccn1)(c1cccc2ccccc12)c1cccc2ccccc12`, the inhibition was inactive: 30%.
As for `CCOC(=O)Nc1cccc([As](=O)(O)O)c1`, the inhibition was inactive: -5.5%.
In the case of `Cc1cc(SC(NC(=O)c2ccccc2)C(Cl)(Cl)Cl)nc(C(C)C)n1` (configuration not stated), the inhibition was inactive: -9.72%.
For `CCCCOc1ccc(C(=O)NCC2(N3CCCCC3)CCCCC2)cc1OC`, the inhibition was inactive: 3.67%.
In the case of `CC1CCNP(=O)(N(CCCl)CCCl)O1` (configuration not stated) it was inactive: -4.06%.
In the case of `CCOC(=O)Nc1ccc([As](=O)(O)O)c(O)c1` it was inactive: -4.37%; in that of `CCC(C)N(CC(C)C)C(=S)SC(NC(C)=O)C(Cl)(Cl)Cl` (configuration not stated), inactive: -7.73%.
As for `CCOC(=O)c1ccc(NC(=O)C(C)(CCl)SC)cc1` (configuration not stated), the inhibition was inactive: -10.7%.
For the compound `O=C(OC1CN2CCC1CC2)c1cccc([N+](=O)[O-])c1` (configuration not stated), the inhibition was inactive: 2.87%.
Next, `O=C(Nc1ccncc1[N+](=O)[O-])c1ccc([N+](=O)[O-])cc1[N+](=O)[O-]`: inactive: -15.6%; `O=C(COc1ccccc1)OC1CN2CCC1CC2` (configuration not stated): inactive: -0.54%.
In the case of `COP1(=S)c2c(C)nn(CCC#N)c2N=C(c2ccc(F)cc2)N1C` (configuration not stated) it was inactive: 8.77%.
